Article PMC7822067, “Pyridinium-2-carbaldoximes with quinolinium carboxamide moiety are simultaneous reactivators of acetylcholinesterase and butyrylcholinesterase inhibited by nerve agent surrogates” (2021)

Sequences of proteins named here, by UniProt entry; tags and fusion partners are left off. Residues count along the entry.
UniProt P06276, 29-602 limits assumed: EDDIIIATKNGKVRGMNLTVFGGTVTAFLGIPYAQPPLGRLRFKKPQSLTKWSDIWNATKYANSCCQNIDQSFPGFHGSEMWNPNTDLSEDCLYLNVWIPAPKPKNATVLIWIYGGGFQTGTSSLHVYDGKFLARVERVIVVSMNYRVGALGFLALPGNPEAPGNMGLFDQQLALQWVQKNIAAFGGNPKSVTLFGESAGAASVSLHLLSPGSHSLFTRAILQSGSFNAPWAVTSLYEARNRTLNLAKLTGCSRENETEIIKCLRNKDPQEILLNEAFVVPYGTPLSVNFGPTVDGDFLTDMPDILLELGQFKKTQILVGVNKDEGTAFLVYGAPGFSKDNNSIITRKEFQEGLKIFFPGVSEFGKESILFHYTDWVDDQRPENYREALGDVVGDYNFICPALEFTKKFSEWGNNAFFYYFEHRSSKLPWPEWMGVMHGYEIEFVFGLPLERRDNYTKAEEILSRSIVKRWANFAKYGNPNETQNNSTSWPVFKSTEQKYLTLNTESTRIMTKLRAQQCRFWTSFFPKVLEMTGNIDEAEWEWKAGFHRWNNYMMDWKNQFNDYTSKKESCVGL

Assays:
hrBChE inhibited by POX = hrBChE inhibited by POX (Homo sapiens, UniProt P06276); test: Reactivation screening of POX-inhibited hrBChE; conditions: 15 min
NEMP-hrBChE = NEMP-hrBChE (Homo sapiens, UniProt P06276); test: Reactivation kinetics of NEMP-hrBChE; conditions: for Kd: read-out: KD (phosphylated enzyme-oxime dissociation constant)
NIMP-hrBChE = NIMP-hrBChE (Homo sapiens, UniProt P06276); test: Reactivation kinetics of NIMP-hrBChE; conditions: read-out: KD (phosphylated enzyme-oxime dissociation constant)

Q: How did the “hrBChE reactivation (%) POX ± SD” value (hrBChE inhibited by POX; oxime 100 µM) turn out when `NC(=O)c1cccc2c1ccc[n+]2CCCCC[n+]1ccccc1C=NO.[Br-].[Br-]` was run?
A: 1.0 ± 0.6%

Q: For `NC(=O)c1cc2ccccc2[n+](CCCCC[n+]2ccccc2C=NO)c1.[Br-].[Br-]`, which “hrBChE reactivation (%) POX ± SD” value (hrBChE inhibited by POX; oxime 10 µM) is on record?
A: 1.0 ± 0.3%

Q: What about the “hrBChE reactivation (%) POX ± SD” value (hrBChE inhibited by POX; oxime 100 µM) of the same compound?
A: 5.0 ± 0.04%

Q: `NC(=O)c1ccc2ccc[n+](CCCCC[n+]3ccccc3C=NO)c2c1.[Br-].[Br-]` was tested. Which “hrBChE reactivation (%) POX ± SD” value (hrBChE inhibited by POX; oxime 100 µM) did it give?
A: 4.4 ± 1.0%

Q: `NC(=O)c1cc[n+](CCCCC[n+]2ccccc2C=NO)c2ccccc12.[Br-].[Br-]` was tested. Which “hrBChE reactivation (%) POX ± SD” value (hrBChE inhibited by POX; oxime 100 µM) did it give?
A: 7.5 ± 1.0%

Q: And the “kr2 (second-order reactivation rate constant, kr2=kr/KD)” value (NEMP-hrBChE)?
A: 11.21 mM^–1 min^–1

Q: And the “kr (first-order reactivation rate constant)” value (NEMP-hrBChE)?
A: 0.175 min^–1

Q: With `NC(=O)c1ccc2c(ccc[n+]2CCCCC[n+]2ccccc2C=NO)c1.[Br-].[Br-]` as the compound, how does the “kr2 (second-order reactivation rate constant, kr2=kr/KD)” value (NEMP-hrBChE) read?
A: 2.76 mM^–1 min^–1

Q: And the “kr (first-order reactivation rate constant)” value (NEMP-hrBChE)?
A: 0.078 min^–1

Q: With `NC(=O)c1cc[n+](CCCCC[n+]2ccccc2C=NO)c2ccccc12` as the compound, how does the Kd (NIMP-hrBChE) read?
A: 12.8 µM

Q: And the Kd (NEMP-hrBChE)?
A: 15.6 µM

Q: With `NC(=O)c1ccc2c(ccc[n+]2CCCCC[n+]2ccccc2C=NO)c1` as the compound, how does the Kd (NIMP-hrBChE) read?
A: 5.31 µM

Q: And the Kd (NEMP-hrBChE)?
A: 28.1 µM
